Experimental data as given in PubChem BioAssay AID1430 (University of Pittsburgh Molecular Library Screening Center, 2008).
“And” between values parts separate entries of the source, which are not always exact repeats. Equal values may be shown once. The entries are a selection whose mix differs from that of the whole data set. The source made the active and inactive calls.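 How the source made its calls: active means inhibition of 50% or more in the single-dose primary screen; inactive means inhibition below 50%.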

test system: hexokinase 1 [Trypanosoma brucei]; experiment: TbHK1 enzyme activity blockers – biochemical, G6PDH-coupled NADH absorbance, MLSCN library, primary screen (AID 1430); conditions: recombinant TbHK1, G6PDH-coupled NADH A340; at 10 µM; stronger effect = higher value

Row | Compound | inhibition
1 | Cc1ccc(N/C(=N/P(=O)(N2CCOCC2)N2CCOCC2)N2CCOCC2)cc1 | inactive: -4.04%
2 | NC(=O)c1cc([N+](=O)[O-])cc([N+](=O)[O-])c1N | inactive: -35.4%
3 | CN1CCCC(OC(=O)C(c2ccccc2)c2ccccc2)C1 (stereo not drawn) | inactive: 3.73%
4 | Clc1ccc(Cl)c(NC2=NCC(CBr)S2)c1 (stereo not drawn) | inactive: 2.88%
5 | COc1ccccc1OP(=O)(Nc1ccc(C)cn1)Oc1ccccc1OC | inactive: -4.79%
6 | Cc1ccc(OP(=O)(Nc2nccs2)Oc2ccc(C)cc2)cc1 | inactive: -5.44%
7 | Oc1ccccc1CNc1ccccn1 | inactive: -0.255%
8 | O=C(NC(Sc1ccncn1)C(Cl)(Cl)Cl)c1ccccc1 (stereo not drawn) | inactive: -1.27%
9 | Cc1c2non([O-])c-2c(C)[n+](=O)[n+]1[O-] | inactive: -10.6%
10 | Nc1cc(N)c2nonc2c1[N+](=O)[O-] | inactive: -32.5%
11 | CC(C)CC(=O)NC(Sc1ccc(Cl)cc1)C(Cl)(Cl)Cl (stereo not drawn) | inactive: -1.36%
12 | O=P(Nc1nc2ccc(Cl)cc2s1)(c1ccccc1)c1ccccc1 | inactive: -2.02%
13 | CC(=O)Nc1ccc([As](=O)(O)O)cc1 | inactive: -4.56%
14 | O=C(O)c1ccccc1[As](=O)(O)O | inactive: -8.95%
15 | Cc1cc(SC(NC(=O)c2ccc(F)cc2)C(Cl)(Cl)Cl)ncn1 (stereo not drawn) | inactive: -1.88%
16 | CCOP(=O)(Nc1ccccc1)OCC | inactive: 5.92% and inactive: -5.79%
17 | Cc1ccc(NP(=O)(Oc2ccccc2F)Oc2ccccc2F)nc1 | inactive: -0.509%
18 | Nc1cccc2ccc([As](=O)(O)O)cc12 | inactive: -23.9%
19 | CCN(N=Nc1nonc1N)c1nonc1N | inactive: 9.34%
20 | O=C(Nc1cc([As](=O)(O)O)ccc1O)c1ccccc1 | inactive: -6.32%
21 | O=[N+]([O-])c1ncn(CCn2ncnc2[N+](=O)[O-])n1 | inactive: 3.14%
22 | CC(C)(C)C(=O)NC(Sc1ccncn1)C(Cl)(Cl)Cl (stereo not drawn) | inactive: -7.35%
23 | O=C(O)CNc1ccc([As](=O)(O)O)cc1 | inactive: 2.68%
24 | O=[N+]([O-])c1cccc(NC2=NCC(CBr)S2)c1 (stereo not drawn) | inactive: -1.85%
25 | COc1ccc(C2=NCC(CBr)S2)cc1 (stereo not drawn) | inactive: 0.816%
26 | Cc1ccc(NP(=O)(Oc2ccccc2)Oc2ccccc2)nc1 | inactive: -3.32%

Row | Compound | inhibition
27 | CCc1nc2c(n1)c1c(non1O)c1c2no[n+]1[O-] | inactive: -21%
28 | O=[N+]([O-])c1cc([N+](=O)[O-])c(CCNc2ccccc2)c([N+](=O)[O-])c1 | inactive: 0.662%
29 | O=[N+]([O-])c1cccc2n[nH]nc12 | inactive: 2.5%
30 | CC(=O)N1C2C3N(C(C)=O)C1C1N(C(C)=O)C(C(N1C(C)=O)N3C(C)=O)N2C(C)=O | inactive: 0.728%
31 | CCN(/C(=N/P(=O)(N1CCOCC1)N1CCOCC1)N1CCOCC1)c1ccc(OC)cc1 | inactive: -0.165%
32 | Nc1ccc([As](=O)(O)c2ccc(N)cc2)cc1 | inactive: -9.21%
33 | C[N+]1=C2C=CC=CC=C2SC12C([N+](=O)[O-])=CC([N+](=O)[O-])=C[C-]2[N+](=O)[O-] (stereo not drawn) | inactive: -1.95%
34 | CC1CCN(C(=O)Oc2c(Cl)cc(Cl)c3cccnc23)CC1 | inactive: 1.38%
35 | CC(C)=N/N=C(\N)N[N+](=O)[O-] | inactive: -2.46%
36 | CN(C)C(=O)OCCc1n(C)cc[n+]1C | inactive: 4.16%
37 | CC(C)C(=O)NC(Sc1ccccc1)C(Cl)(Cl)Cl (stereo not drawn) | inactive: 0.524%
38 | O=P(Nc1nccs1)(c1ccccc1)c1ccccc1 | inactive: 5.11%
39 | c1nnnn1CCn1cnnn1 | inactive: -1.65%
40 | O=P(Nc1ccccn1)(c1ccc(Br)cc1)c1ccc(Br)cc1 | inactive: -8.51%
41 | O=P(Nc1nc2ccccc2s1)(c1ccccc1)c1ccccc1 | inactive: -9.37%
42 | C[C@H]1OP(=O)(Oc2ccccc2)[C@H](O)[C@H](O)[C@H]1N=[N+]=[N-] (stereo partly drawn) | inactive: 7.11%
43 | O=[As](O)(c1ccccc1)c1ccc(O)cc1 | inactive: 13.6%
44 | O=[N+]([O-])c1ncn(CCn2cnc([N+](=O)[O-])n2)n1 | inactive: -12.8%
45 | CC(=O)NC(SC(=S)N(C)C)C(Cl)(Cl)Cl (stereo not drawn) | inactive: -1.26%
46 | O=C(OC1CN2CCC1CC2)c1cccc(Cl)c1 (stereo not drawn) | inactive: 2.22%
47 | C(Cc1nn[nH]n1)Cc1nn[nH]n1 | inactive: -1.56%
48 | Nc1ccc([As](=O)(O)c2ccc([N+](=O)[O-])cc2)cc1 | inactive: -8.17%
49 | c1ccc(-c2nn[nH]n2)c(-c2nn[nH]n2)c1 | inactive: -1.39%
50 | CCOC(=O)NC(Sc1ccccc1)C(Cl)(Cl)Cl (stereo not drawn) | inactive: 2.63%
51 | Cc1ccc(NP(=O)(Oc2cccc(C)c2)Oc2cccc(C)c2)nc1 | inactive: -6.03%
52 | CCNC(=S)/N=C(\N)N[N+](=O)[O-] | inactive: -8.45%

Row | Compound | inhibition
53 | O=C(NC1CCS(=O)(=O)C1)NP(=S)(Oc1ccccc1)Oc1ccccc1 (stereo not drawn) | inactive: -4.82%
54 | CCC(=O)N1C2C3N(C(=O)CC)C1C1N(C(=O)CC)C(C(N1C(=O)CC)N3C(=O)CC)N2C(=O)CC | inactive: 0.66%
55 | COC(=O)c1cc2c(s1)N=C(c1ccccc1)N(C)P2(=O)N1CCOCC1 (stereo not drawn) | inactive: -32.5%
56 | Cc1ccc(OP(=O)(Nc2ccccn2)Oc2ccc(C)cc2)cc1 | inactive: -3.55%
57 | CC(=O)NC(SC(=S)N(CC(C)C)CC(C)C)C(Cl)(Cl)Cl (stereo not drawn) | inactive: 1.26%
58 | Cc1ccccc1OP(=O)(Nc1ccccn1)Oc1ccccc1C | inactive: -1.36%
59 | O=c1c2cc([N+](=O)[O-])ccc2[nH]c2c([N+](=O)[O-])cc([N+](=O)[O-])cc12 | inactive: 0.278%
60 | CN(C)C(=O)Oc1noc2ccccc12 | inactive: -1.96%
61 | O=P1(Nc2nc3ccc(Cl)cc3s2)COc2ccccc2O1 (stereo not drawn) | inactive: -3.7%
62 | CCOc1ccc(C2=NCC(CBr)S2)cc1 (stereo not drawn) | inactive: 11.7%
63 | CC(C)(C)C(=O)NC(Sc1ccccc1)C(Cl)(Cl)Cl (stereo not drawn) | inactive: -3.08%
64 | C[C@H]1OP(=O)(Oc2ccccc2)C[C@@H]2O[C@@H]21 (stereo partly drawn) | inactive: 7.95%
65 | C[C@@H]1C=CCP(=O)(Oc2ccccc2)O1 (stereo partly drawn) | inactive: -11.8%
66 | CC(=O)Nc1ccc([As](=O)(O)O)c(O)c1 | inactive: -11.3%
67 | CC(=O)Nc1ccc(Oc2c([N+](=O)[O-])cc([N+](=O)[O-])cc2[N+](=O)[O-])cc1 | inactive: -24.6%
68 | O=C(OC1CN2CCC1CC2)c1ccc(Cl)cc1 (stereo not drawn) | inactive: -0.968%
69 | O=[As](O)(O)c1cccnc1 | inactive: -7.04%
70 | COc1cc(C(=O)NCC2(N3CCOCC3)CCCCC2)cc(Cl)c1OC(C)C | inactive: -0.23%
71 | Cc1cccc(OCC(=O)OC2CN3CCC2CC3)c1 (stereo not drawn) | inactive: -1.98%
72 | O=[As](O)(c1cccc(O)c1)c1cccc(O)c1 | inactive: -7.66%
73 | Nc1cccc2c([As](=O)(O)O)cccc12 | inactive: -20.5%
74 | Cc1ccc(NCCc2c([N+](=O)[O-])cc([N+](=O)[O-])cc2[N+](=O)[O-])cc1 | inactive: 4.27%
75 | CCCOP(=S)(Nc1nc(N)cc(=O)[nH]1)OCCC | inactive: -5.87%
76 | COc1cc(C2NCCC3(OCCO3)C2(C)C)cc(OC)c1OC (stereo not drawn) | inactive: 21.6%
77 | CCOP(=O)(Nc1cccc2ccccc12)OCC | inactive: 4.14%
78 | CCOP1(=S)c2c(C)nn(CCC#N)c2N=C(c2ccccc2F)N1C (stereo not drawn) | inactive: 5.72%

Row | Compound | inhibition
79 | O=P(Nc1nccs1)(Oc1ccccc1)Oc1ccccc1 | inactive: 4.21%
80 | O=P(Nc1nccs1)(c1ccccc1)c1nc2ccccc2s1 (stereo not drawn) | active: 89.8%
81 | CS(=O)(=O)c1cc([N+](=O)[O-])c2no[n+]([O-])c2c1 | inactive: -31.8%
82 | Nc1ccccc1[As](=O)(O)c1ccccc1 | inactive: 2.78%
83 | O=C(O)COc1ccc([As](=O)(O)O)cc1[N+](=O)[O-] | inactive: -15.8%
84 | NC(=O)Nc1ccc([As](=O)(O)O)cc1 | inactive: -4.17%
85 | CCOP1(=S)c2c(C)nn(CCC#N)c2N=C(c2ccc(F)cc2)N1C (stereo not drawn) | inactive: 0.296%
86 | CN(C(=O)Cc1ccccc1)[C@@H]1CC[C@]2(CCCO2)C[C@H]1N1CCCC1 | inactive: -8.38%
87 | O=[N+]([O-])c1ccc2c(c1)nnn2O | inactive: -0.311%
88 | Cc1nn(-c2ccccc2)c2c1P(=O)(N1CCOCC1)N(C)C(c1ccccc1)=N2 (stereo not drawn) | inactive: 0.371%
89 | CC1CCC(C(C)C)C(OP(=O)(Nc2ccccn2)c2ccccc2)C1 (stereo not drawn) | inactive: -3.8%
90 | CN(C)C1(CNC(=O)c2ccc(S(C)(=O)=O)cc2)CCCCC1 | inactive: -5.39%
91 | O=C(/C=C/c1ccccc1)OC1CN2CCC1CC2 (stereo not drawn) | inactive: 1.31%
92 | O=P1(Nc2ncccn2)COc2ccccc2OC1 | inactive: -2.78%
93 | Nc1cccc([As](=O)(O)c2ccccc2)c1 | inactive: 3.79%
94 | O=[As](O)(c1cccs1)c1cccs1 | inactive: -9.25%
95 | Cc1ccc(OCC(=O)OC2CN3CCC2CC3)cc1 (stereo not drawn) | inactive: -0.275%
96 | O=P1(Nc2ccc(Br)cn2)COc2ccccc2OC1 | inactive: 2.71%
97 | O=P1(Nc2ccccn2)COc2ccccc2OC1 | inactive: 0.787%
98 | CCOP(=O)(Nc1ccc(C)cn1)OCC | inactive: -5.3%
99 | Clc1n[nH]nc1-c1nn[nH][15n]1 | inactive: 5.17%
100 | CC(C)(C)C(=O)NC(Sc1ncccn1)C(Cl)(Cl)Cl (stereo not drawn) | inactive: -12.2%
101 | CC(C)/C=N\N=C(\N)N[N+](=O)[O-] | inactive: 1.5%
102 | O=[As](O)(c1ccccc1Br)c1ccccc1Br | inactive: -1.6%
103 | CC1(CBr)Cn2c(nc3ccccc3c2=O)S1 (stereo not drawn) | inactive: -2.22%
